The values below come from paper PMC3516572, “MiniCD4 Microbicide Prevents HIV Infection of Human Mucosal Explants and Vaginal Transmission of SHIV162P3 in Cynomolgus Macaques” (PLoS Pathogens, 2012).

Series [1] deals with co-cultures of monocyte-derived dendritic cells (MO-DC) and allogeneic CD4+ T cells. The following applies: highest concentrations tested; cited from earlier work. Here is the method: (§1) These positive results prompted further assessment of the activity of M48U1 in genital and colorectal tissue explants models. Nonpolarized cervical and colorectal explant tissues were pre-treated with M48U1 for 1 h at 37°C followed by exposure to HIV-1Ba-L for 2 h in the continued presence of compound.

Series [2] relates to ME-180 endocervical cells. The following applies: highest concentrations tested; cited from earlier work. How it is done:
as §1

A further series has as its system penile tissue explants. Briefly: MTT viability assay on penile tissue explants. The series is classed as cell-based, human. As to conditions: 24 h at 37°C, then MTT 2 h; M48U1 ten-fold dilutions, highest concentrations tested; nonoxynol-9 at 500 ng/mL; two independent experiments in triplicates. An excerpt: Cervical tissue was obtained from patients undergoing planned therapeutic hysterectomy at St. George's Hospital in London, United Kingdom. Surgically resected specimens of colorectal tissue were collected at St. George's Hospital, London, United Kingdom. Penile tissue (glans) was obtained from individuals undergoing gender reassignment surgery at Charing Cross Hospital. All tissues were collected after signed informed consent was received from all patients and under protocols approved by the Local Research Ethics Committee (National Research Ethic Service NHS). On arrival in the laboratory, resected tissue was cut into 2–3 mm^3 explants comprising both epithelial and stromal tissue or muscularis mucosae, depending on the tissue, as described previously, [22].
Penile tissues and PM-1 T cells were incubated in complete RPMI medium supplemented with ten-fold dilutions of M48U1 for 24 h at 37°C. Nonoxynol-9 microbicide (tested at 500 ng/mL) was employed as cytotoxic reference. […] For tissue, after releasing the formazan in ethanol overnight, cytotoxicity was determined by measuring the optical density of the purple formazan product at 570–690 nm using Synergy HT multi-detection microplate reader. For PM-1 cells, the absorption of the formazan product was determined after lysis of the cells.
For orientation: Formazan colour is commonly taken as a measure of viable cells.

Another series relates to PM-1 T cells. Briefly: MTT viability assay on PM-1 T cells. As to conditions: 24 h at 37°C, then MTT 2 h; M48U1 ten-fold dilutions, highest concentrations tested; nonoxynol-9 at 500 ng/mL; two independent experiments in triplicates. The series is classed as cell-based. Here is the method: Penile tissues and PM-1 T cells were incubated in complete RPMI medium supplemented with ten-fold dilutions of M48U1 for 24 h at 37°C. Nonoxynol-9 microbicide (tested at 500 ng/mL) was employed as cytotoxic reference. The compounds were removed and the tissue explants and cells were incubated for 2 h in medium containing 500 µg/mL of 3-(4,5-dimethylthiazol-2-yl)-2,5-diphenyltetrazolium bromide (MTT). For tissue, after releasing the formazan in ethanol overnight, cytotoxicity was determined by measuring the optical density of the purple formazan product at 570–690 nm using Synergy HT multi-detection microplate reader. For PM-1 cells, the absorption of the formazan product was determined after lysis of the cells.

Another series deals with gp120. As to conditions: cited from earlier work.
Another series relates to SHIV162P3. Briefly: TZM-bl assay, SHIV162P3. The following applies: IC50 SHIV162P3 / IC50 HIV-1SF162, TZM-bl. Type of series: cell-based, simian-human immunodeficiency virus. Here is the method:
(§2) Primary HIV-1SF162 or SHIV162P3 were briefly amplified in PHA-IL2 activated human PBMC. Corresponding Env expressing constructs were prepared by DNA amplification of the complete Env gene from PBMC co-cultures and subsequent cloning into pSV7d or pcDNA4/TO expression vector (Invitrogen BV, Groningen, The Netherlands). Sequencing of the pseudovirus construct and phylogenetic analysis of the complete gp160 confirmed the relation between the pseudovirus and the associated original virus.
Adherent CD4 and CCR5 expressing TZM-bl cell line with a luciferase reporter gene under HIV LTR control (NIH AIDS Research and Reference Reagent Program) was cultured in DMEM containing 1% L-glutamine, 10% heat-inactivated FBS, and 50 µg/mL gentamicin.
(§3) The inhibitory activity of M48U1 against either HIV-1SF162, SHIV162P3 or corresponding pseudoviruses was measured as follows: 50 µL of (pseudo)virus suspension and 50 µL of a serial dilution of M48U1 or 50 µL medium (negative control) were pre-incubated for 30 min. […] Next the luciferase activity (proportional to the amount of infectious virus particles) was measured using a TriStar LB941 luminometer (Berthold Technologies GmbH & Co.KG., Bad Wildbad, Germany) and expressed as relative light units (RLU). Finally, the inhibitory activity was calculated in GraphPad Prism 5.03 using non-linear regression (GraphPad Software, San Diego, CA, USA). […]

Another series deals with PV SHIV162P3. The series is described as follows: TZM-bl assay, pseudovirus with SHIV162P3 envelope. Type of series: cell-based, simian-human immunodeficiency virus. As to conditions: IC50 PV SHIV162P3 / IC50 PV HIV-1SF162, TZM-bl. Here is the method:
as §2
Pseudoviruses were generated in a 24-well plate by co-transfection of 2×10^5 human embryonic kidney (HEK) 293T cells (obtained from ATCC) with pNL4-3. […]
as §3

Consider `CC(C)C[C@@H]1NC(=O)CNC(=O)[C@H](CC(C)C)NC(=O)[C@H](CO)NC(=O)[C@H](CCCCN)NC(=O)[C@@H]2CSSC[C@@H](C(=O)N[C@H](C(N)=O)C(C)C)NC(=O)[C@H](C)NC(=O)[C@@H]3CSSC[C@H](NC(=O)[C@H](Cc4ccccc4)NC(=O)[C@H](Cc4cnc[nH]4)NC(=O)[C@H](CC(C)C)NC(=O)[C@H](CC(N)=O)NC(=O)CCSSC[C@H](NC(=O)[C@H](CCCNC(=N)N)NC(=O)CNC(=O)[C@H](CC(C)C)NC1=O)C(=O)N[C@@H](C)C(=O)N1CCC[C@@H]1C(=O)N[C@@H]([C@@H](C)O)C(=O)N[C@@H](Cc1ccc(OCC4CCCCC4)cc1)C(=O)N3)C(=O)N[C@@H](CCC(N)=O)C(=O)N[C@@H](CC(C)C)C(=O)N[C@@H](CCCNC(=N)N)C(=O)N2` [M48U1], for which the “Cytotoxicity (MTT) in MO-DC / allogeneic CD4+ T cell co-cultures” value in series [1] is on record as “no apparent cytotoxicity”. Further, the “Cytotoxicity (MTT) in ME-180 endocervical cells” value in series [2] is given as “no apparent cytotoxicity”. The “Cytotoxicity (MTT) in penile tissue” value with penile tissue explants is “no apparent cytotoxicity”. Further, the “Cytotoxicity (MTT) in PM-1 T-cell line” value in the series with PM-1 T cells is “no apparent cytotoxicity”. Also, on gp120, the “Affinity for gp120” value was “sub-nanomolar”. In addition, the “Ratio SHIV/SF (virus)” value with SHIV162P3 was determined as 26. In the series with PV SHIV162P3, the “Ratio SHIV/SF (pseudovirus)” value is 11.
